Measured values from several laboratories, pooled; numbers as filed in NIAID ChemDB.

Common to all: growth or infection tests; agent: Mycobacterium tuberculosis

Inhibition is in % at the dose shown (toxicity tests: loss of growth or viability).

SMILES	endpoint	dose	setting	mutations	strain	read by	result
COc1ccccc1/C=C(\C#N)n1nnc2ccccc21	MIC50				ATCC 27294		32.3 µM
COC/C=C(\C)CC/C=C(\C)CC/C=C(\C)CCC=C(C)C	inhibition	6.25 µg/mL			H37Rv	resazurin	6%
N#Cc1c(-c2cccc([N+](=O)[O-])c2)cc(-c2cc3cc(Br)ccc3nc2Cl)nc1N	inhibition	6.25 µg/mL			H37Rv	broth dilution	6%
N#C/C(=C\c1cc(F)cc(F)c1)n1nnc2ccccc21	MIC90				ATCC 27294		98.6 µM
Cc1ccn2nc(C)c(C(=O)NCc3ccc(-c4ccc(OC(F)(F)F)cc4)cn3)c2c1	MIC			katG mutant isoniazid resistant	INH-R1	resazurin	0.014 µg/mL
CSC(=S)NNC(=O)c1cccc(S(=O)(=O)F)c1	MIC bound				H37Rv	BACTEC	>12.5 µg/mL
C=C1CCCC(C)(C)[C@H]1CC/C(C)=C/CC/C(C)=C/COC1CCCCO1	inhibition	6.25 µg/mL			H37Rv	resazurin	27%
NC1CCN(c2c(F)cc3c(=O)c(C(=O)O)cn(C4CC4)c3c2Cl)C1	MIC90						1 µg/mL
N#Cc1c(-c2ccc(Cl)cc2Cl)cc(-c2cc3cc(F)ccc3nc2Cl)nc1N	inhibition	6.25 µg/mL			H37Rv	broth dilution	8%
Cc1ccc(/C=C(\C(N)=S)c2nc3ncccc3[nH]2)c(C)c1	MIC				H37Rv		15.6 µg/mL
CCCCCCCCO[C@@H]1O[C@H]([C@@H](COCc2ccccc2)O[C@H]2O[C@H](CO)[C@@H](O)[C@@H]2O)[C@H](OCc2ccccc2)[C@H]1OCc1ccccc1	MIC				H37Ra		32 µg/mL
Nc1cccc2c1C(=O)c1cccc(NC(=O)c3ccccc3)c1C2=O	MIC bound				H37Rv	BACTEC	>12.5 µg/mL
CC1N=C(N)NC(c2ccco2)=C1C(=O)Nc1ccc(S(=O)(=O)c2ccc(NC(=O)C3=C(c4ccco4)NC(N)=NC3C)cc2)cc1	MIC				H37Rv		0.59 µM
O=c1oc2c(Cl)cc(Cl)cc2c(=O)n1-c1ccc(Cl)cc1	MIC				CNCTC MY331/88		15.8 µM
CN(C)C(=S)SCCOc1ccc(Cl)cc1Cl	MIC				H37Rv	BACTEC	64 µg/mL
CO[C@H]1/C=C/O[C@@]2(C)Oc3c(C)c(O)c4c(O)c(c5c(c4c3C2=O)NC2(CCNCC2)N=5)=NC(=O)/C(C)=C\C=C\[C@H](C)[C@H](O)[C@@H](C)[C@@H](O)[C@@H](C)[C@H](OC(C)=O)[C@@H]1C	MIC				H37Rv	visual reading / absorbance	0.2 µg/mL
CC1N=C(N)NC(c2c(Cl)cccc2Cl)=C1C(=O)Nc1ccc(S(=O)(=O)c2ccc(NC(=O)C3=C(c4c(Cl)cccc4Cl)NC(N)=NC3C)cc2)cc1	MIC				H37Rv		0.28 µM
NNC(=O)c1ccncc1	MIC			Isoniazid-resistant	INH-R2	resazurin	>27 µg/mL
CCO/N=C1/C(=O)N(CCOCCOCCOCCN2C(=O)C(=O)c3cc(F)ccc32)c2ccc(C)cc21	MIC				H37Rv	visual reading	128 µg/mL
N#C/C(=C/c1cccc(Br)c1)n1nnc2ccccc21	MIC50				ATCC 27294		29.6 µM
CC1N=C(N)NC(c2ccc(F)cc2)=C1C(=O)Nc1ccc(S(=O)(=O)c2ccc(NC(=O)C3=C(c4ccc(F)cc4)NC(N)=NC3C)cc2)cc1	MIC				H37Rv		0.08 µM
Cc1ccc(/C=C(\C(N)=S)c2nc3cccnc3n2C)c(C)c1	MIC				H37Rv		31.2 µg/mL
O=C(/C=C/c1cc2cc(F)ccc2nc1Cl)c1ccc(Br)cc1	inhibition	5 µg/mL			H37Rv	broth dilution	98%
CCOc1ccc(NC(=O)C(=O)Nn2c(N)nnc2N)cc1	MIC bound				H37Rv	BACTEC	>12.5 µg/mL
COc1c(N2CCNC(C)C2)c(F)cc2c(=O)c(C(=O)O)cn(C3CC3)c12	MIC50						0.12–1 µg/mL
CC1C(=O)N(C)c2ccc(C(=O)CN3CCN(c4noc5cc(Cl)ccc45)CC3)cc21	MIC				H37Rv	visual reading / absorbance	1.56 µg/mL
Cc1ccc(NCCN)c2c(=O)c3cc(O)ccc3sc12	inhibition	12.5 µg/mL			H37Rv	BACTEC	1%
c1ccc(Nc2cc(Nc3ccccc3)ncn2)cc1	MIC90				mc4914 InhA overexpressing	resazurin	>500 µM
COc1ccc(OC)c2c(Cl)cc(NCCCCCCCCNc3cc(Cl)c4c(OC)ccc(OC)c4n3)nc12	inhibition	12.5 µg/mL			H37Rv	BACTEC	5%
CC1N=C(N)NC(c2ccc(N(C)C)cc2)=C1C(=O)Nc1ccc(S(=O)(=O)c2ccc(NC(=O)C3=C(c4ccc(N(C)C)cc4)NC(N)=NC3C)cc2)cc1	MIC				INH resistant		3.78 µM
CCCCCCCCO[C@@H]1O[C@H]([C@@H](COCc2ccccc2)O[C@H]2O[C@H](COC(=O)c3ccccc3)[C@@H](OC(=O)c3ccccc3)[C@@H]2OC(=O)c2ccccc2)[C@H](OCc2ccccc2)[C@H]1OCc1ccccc1	MIC				H37Ra		>128 µg/mL
CO/N=C1/C(=O)N(CCOCCOCCOCCn2c(O)c(N=O)c3cc(F)ccc32)c2ccc(F)cc21	MIC				H37Rv	visual reading	256 µg/mL
C=C(C)[C@@H]1[C@H]2C(=O)O[C@@H]1C[C@@]1(C)[C@]2(O)[C@@H]2O[C@@H]2[C@@]12CO2	MIC				H37Rv	BACTEC	≥12.5 µg/mL
O=C(/C=C/c1cc2cc(F)ccc2nc1Cl)c1cccc([N+](=O)[O-])c1	inhibition	6.25 µM			H37Rv	broth dilution	9%
CO/N=C1/C(=O)N(CCOCCOCCOCCN2C(=O)C(=O)c3ccccc32)c2ccc(C)cc21	MIC				H37Rv	visual reading	128 µg/mL
O=C1Cc2cc(C(=O)CN3CCN(c4noc5ccccc45)CC3)ccc2N1	MIC				H37Rv	visual reading / absorbance	50 µg/mL
CCOP(=O)(OCC)C1CCCN2CCc3cc(OC)c(OC)cc3C12.Cl	MIC				H37Rv	BACTEC	≥12.5 µg/mL
CN1/C(=C/C(=O)NN)N(C)c2ncccc21	MIC				193		250 µg/mL
CN1C(=O)Cc2cc(C(=O)CN3CCN(c4ccccn4)CC3)ccc21	MIC				H37Rv	visual reading / absorbance	3.12 µg/mL
COc1ccc(C2=C(C(=O)Nc3ccc(S(=O)(=O)c4ccc(NC(=O)C5=C(c6ccc(OC)cc6)NC(N)=NC5C)cc4)cc3)C(C)N=C(N)N2)cc1	MIC				H37Rv		0.86 µM
C[C@H]1COc2c(N3CCN(C)CC3)c(F)cc3c(=O)c(C(=O)O)cn1c23	MIC50				5 isolates drug-resistant		0.5 µg/mL
CCO/N=C1/C(=O)N(CCOCCOCCOCCN2C(=O)C(=O)c3ccccc32)c2ccc(C)cc21	MIC				H37Rv	visual reading	256 µg/mL
C/C(=C\COC1CCCCO1)CC/C=C(\C)CCC1CCCCC1	inhibition	6.25 µg/mL			H37Rv	resazurin	77%
O=c1/c(=C/c2ccccc2[N+](=O)[O-])sc2nnc(-c3cccnc3)n12	inhibition	12.5 µg/mL			H37Rv	BACTEC	0%
CC(C(N)=S)c1nc2ncccc2[nH]1	MIC				109		16 µg/mL
O=C1NN2CCCN=C2c2ncccc21	MIC bound				H37Rv	BACTEC	>12.5 µg/mL
CC1C(=O)Nc2ccc(C(=O)CN3CCN(c4noc5ccccc45)CC3)cc21	MIC				H37Rv	visual reading / absorbance	25 µg/mL
Nc1ccc(C(=O)/C=C/c2cc3cc(Br)ccc3nc2Cl)cc1	inhibition	6.25 µg/mL			H37Rv	broth dilution	13%
CN1C(=O)Cc2cc(C(=O)CN3CCN(c4noc5cc(Cl)ccc45)CC3)ccc21	MIC				H37Rv	visual reading / absorbance	6.25 µg/mL
CC(C)=CCC/C(C)=C/CC/C(C)=C/CC/C(C)=C/CO	inhibition	6.25 µg/mL			H37Rv	resazurin	96%
O=c1c2cncnc2sc2nc3ccccc3n12	MIC bound				H37Rv	resazurin	>6.25 µg/mL
CC(=O)OC/C=C(\C)CCC=C(C)C	inhibition	6.25 µg/mL			H37Rv	resazurin	26%
N#C/C(=C\c1ccc(F)cc1F)n1nnc2ccccc21	MIC50				ATCC 27294		>100 µM
CC1N=C(N)NC(c2ccccc2Cl)=C1C(=O)Nc1ccc(S(=O)(=O)c2ccc(NC(=O)C3=C(c4ccccc4Cl)NC(N)=NC3C)cc2)cc1	MIC				INH resistant		1.72 µM
N#Cc1c(N)[nH]c(S)c1C#N	MIC bound				H37Rv	BACTEC	>12.5 µg/mL
CCO/N=C1/C(=O)N(CCOCCOCCOCCn2c(O)c(N=O)c3ccccc32)c2ccc(C)cc21	MIC			MDR		visual reading	512 µg/mL
O=[n+]1c2ccc(Cl)cc2n([O-])c2ccc(Cl)cc21	MIC				ETA-R		>12.5 µg/mL
C=CC(C)(CC/C=C(/C)CCC=C(C)C)OC(C)=O	inhibition	6.25 µg/mL			H37Rv	resazurin	15%
N#C/C(=C\c1ccc(Cl)cc1Cl)n1nnc2ccccc21	MIC50				ATCC 27294		>100 µM
O=c1oc2c(Br)cc(Br)cc2c(=O)n1-c1ccccc1	MIC				CNCTC MY331/88		63.1 µM
COC(=O)[C@@H](NC(=O)[C@H](C)NC(=O)C1CCCN1C(=O)CNC(=O)[C@H](CO)NC(=O)[C@@H](NC(=O)OCc1ccccc1)C(C)O)C(C)O	MIC bound				H37Rv	BACTEC	>12.8 µg/mL
CCc1ccc([C@H]2C[C@@H](C(F)(F)F)n3ncc(C(=O)NCc4ccc(OC)cc4)c3N2)cc1	fold resistance			MmpL3: Ala249Pro	H37Rv	fluorescence	>8
CC1N=C(N)NC(c2cccs2)=C1C(=O)Nc1ccc(S(=O)(=O)c2ccc(NC(=O)C3=C(c4cccs4)NC(N)=NC3C)cc2)cc1	MIC				INH resistant		6.23 µM
NC1[C@H]2CN(c3nc4c(cc3F)c(=O)c(C(=O)O)cn4-c3ccc(F)cc3F)C[C@@H]12	MIC50						32 µg/mL
N#C/C(=C\c1cc(Cl)cc(Cl)c1)n1nnc2ccccc21	MIC90				ATCC 27294		>100 µM
CCCCn1c(C)nc2c(NN=C(N)N)c3ccccc3c(N=NC(=N)N)c21	MIC bound				H37Rv	BACTEC	≤12.5 µg/mL
CCN1C(=O)C(C)c2cc(C(=O)CN3CCN(c4ccccn4)CC3)ccc21	MIC				H37Rv	visual reading / absorbance	3.12 µg/mL
C/C(=N\NC(=O)c1ccccc1O)c1ccc(/C(C)=N/NC(=O)c2ccccc2O)c2nc3cc(C)c(C)cc3nc12	MIC				H37Rv	BACTEC	≥12.5 µg/mL
COc1ccc(-n2c(=O)oc3c(Br)cc(Br)cc3c2=O)cc1	MIC				CNCTC MY331/88		63.1 µM
Cc1nn(C(=O)c2ccncc2)c(C)c1N=Nc1ccc(Br)cc1	MIC bound				H37Rv	BACTEC	>12.5 µg/mL
Nc1nc(-c2ccc(Cl)c(Cl)c2)cc(-c2cc3cc(F)ccc3nc2Cl)n1	inhibition	6.25 µg/mL			H37Rv	broth dilution	12%
Cc1ccc(-n2cc(-c3ccc(Cl)cc3)c3c2N=CN2NC(c4cccs4)=NC32)cc1	inhibition	12.5 µg/mL			H37Rv	BACTEC	0%
NNC(=O)CNc1ccc2ccccc2c1	inhibition	100 µg/mL	21 d, 8% human serum		H37Rv		100%
Cn1cc(N)cc1C(=O)Nc1cc(C(=O)Nc2ccc3cc(S(=O)(=O)O)cc(S(=O)(=O)O)c3c2)n(C)n1	inhibition	12.5 µg/mL			H37Rv	BACTEC	1%
O=c1oc2c(Cl)cc(Cl)cc2c(=O)n1-c1ccccc1	MIC				CNCTC MY331/88		63.1 µM
COc1ccc(N=C2C(=Nc3ccc(OC)cc3)N(c3ccc(OC)cc3)C(=S)N2C(=O)c2ccc(Cl)cc2)cc1	MIC bound				H37Rv	BACTEC	>12.5 µg/mL
CO[C@H]1/C=C/O[C@@]2(C)Oc3c(C)c(O)c4c(O)c(c5c(c4c3C2=O)NC2(CCN(CC(C)C)CC2)N=5)=NC(=O)/C(C)=C\C=C\[C@H](C)[C@H](O)[C@@H](C)[C@@H](O)[C@@H](C)[C@H](OC(C)=O)[C@@H]1C	MIC				Strain .9		0.003 µg/mL

A second listing of 7 rows from above:

| SMILES | endpoint | dose | setting | mutations | strain | read by | result |
|---|---|---|---|---|---|---|---|
| CO[C@H]1/C=C/O[C@@]2(C)Oc3c(C)c(O)c4c(O)c(c5c(c4c3C2=O)NC2(CCNCC2)N=5)=NC(=O)/C(C)=C\C=C\[C@H](C)[C@H](O)[C@@H](C)[C@@H](O)[C@@H](C)[C@H](OC(C)=O)[C@@H]1C | MIC |  |  |  | H37Rv | visual reading / absorbance | 0.2 µg/mL |
| N#Cc1c(-c2ccc(Cl)cc2Cl)cc(-c2cc3cc(F)ccc3nc2Cl)nc1N | inhibition | 6.25 µg/mL |  |  | H37Rv | broth dilution | 8% |
| C/C(=C\COC1CCCCO1)CC/C=C(\C)CCC1CCCCC1 | inhibition | 6.25 µg/mL |  |  | H37Rv | resazurin | 77% |
| COc1ccc(N=C2C(=Nc3ccc(OC)cc3)N(c3ccc(OC)cc3)C(=S)N2C(=O)c2ccc(Cl)cc2)cc1 | MIC bound |  |  |  | H37Rv | BACTEC | >12.5 µg/mL |
| COc1ccc(OC)c2c(Cl)cc(NCCCCCCCCNc3cc(Cl)c4c(OC)ccc(OC)c4n3)nc12 | inhibition | 12.5 µg/mL |  |  | H37Rv | BACTEC | 5% |
| COC(=O)[C@@H](NC(=O)[C@H](C)NC(=O)C1CCCN1C(=O)CNC(=O)[C@H](CO)NC(=O)[C@@H](NC(=O)OCc1ccccc1)C(C)O)C(C)O | MIC bound |  |  |  | H37Rv | BACTEC | >12.8 µg/mL |
| CC1N=C(N)NC(c2c(Cl)cccc2Cl)=C1C(=O)Nc1ccc(S(=O)(=O)c2ccc(NC(=O)C3=C(c4c(Cl)cccc4Cl)NC(N)=NC3C)cc2)cc1 | MIC |  |  |  | H37Rv |  | 0.28 µM |

Fold resistance: result on the changed form divided by that on wild type. A number after MIC or MFC names an inhibition level or a share of isolates. MIC bound: limit read from a one-dose screen. Blank or dashed fields: not listed here. Neighbouring rows are from separate reports. Two numbers with a dash give a range or band.